Results of unrelated studies side by side (data: NIAID ChemDB).

Common to all: tests in culture; agent: HIV-1; cell line: MT-4; endpoint: EC50

Rows are shuffled and stem from different studies. Two numbers with a dash give a range or band. Blank or dashed fields: not listed here. ECn: concentration that inhibits the pathogen or its effect by n%.

SMILES,strain,mutations,method,setting,result
CCc1nc([N+](=O)[O-])c(N2CCN(C(=O)c3cccs3)CC2)n1Cc1ccccc1,IIIB,,syncytia,,>49 µg/mL
O=C(/C=C/c1ccccc1)c1ccccc1O,IIIB,,MTT,,>400 µM
Cc1cccc(-c2ccc(CO)o2)n1,,,,,>100 µg/mL
Cc1cc(C)cc(S(=O)(=O)c2c(C(=O)NCCO)[nH]c3ccc(Cl)cc23)c1,,RT-K103N Y181C,cytopathic effect / MTT,,0.5 µM
O=c1[nH]c(=O)n([C@@H]2C[C@H](O)[C@@H](CO)S2)cc1/C=C/Br,IIIB,,cytopathic effect / MTT,,>500 µM
CC1(C)c2nc(C(=O)NCc3ccc(F)cc3)c(O)c(=O)n2CCN1Cc1cn[nH]c1,,,p24,,<1 µM
Cc1cc(S(N)(=O)=O)ccc1NC(=O)COc1ccc(Cl)cc1C(=O)c1cc(F)cc(C#N)c1,Nevirapine-resistant (RT Y181C),RT-Y181C,cytopathic effect / propidium iodide,,<0.01 µM
CCc1nc([N+](=O)[O-])c(N2CCN(C(=O)c3ccc(Cl)cc3)CC2)n1Cc1ccccc1,IIIB,,syncytia,,>21.2 µg/mL
OC[C@@H]1OC[C@H](On2cnc3c(Cl)ncnc32)O1,,,,,>100 µg/mL
Cc1cc(C#N)cc(C(=O)c2cc(Cl)ccc2OCC(=O)Nc2ccc(S(N)(=O)=O)nc2C)c1,IIIB,,cytopathic effect / propidium iodide,,<0.01 µM
CC(=O)N1CCn2c(nc(C(=O)NCc3ccc(F)cc3)c(O)c2=O)C1CO,,,p24,,<50 µM
O=C1OC(C(O)Cn2ccc(=O)[nH]c2=O)C(OCc2ccccc2)=C1OCc1ccccc1,,,,,>50 µg/mL
C=C1CN(S(=O)(=O)c2ccc(C)cc2)CCCN(Cc2ccccc2)CCCN(S(=O)(=O)c2ccc(C)cc2)C1,AZT-resistant,,,,2 µM
COc1ccc(CSc2nc(C(=O)c3ccc(F)cc3)c(C)c(=O)[nH]2)cc1,IIIB,K103N/Y181C,MTT,,>225 µM
Nc1ncnc2c1ncn2[C@H]1C[C@@H](O)[C@H](CO)O1,IIIB,,cytopathic effect / MTT,,>1000 µM
O=C(O)CCCCCCCCCCCCCNC(=O)C(CO[C@@H]1O[C@H](CO)[C@H](O)[C@H](O)[C@H]1O)NC(=O)CCCCCCCCCCC(=O)O,IIIB,,cytopathic effect / MTT,,>100 µM
Cc1cccc(N2C(=O)CSC2c2c(Cl)cccc2Cl)n1,,,,,0.248 µM
CCOC(=O)CSCC(=O)N1CCN(c2c([N+](=O)[O-])nc(CC)n2Cc2ccccc2)CC1,IIIB,,syncytia,,>2.48 µg/mL
COc1ncnc2c1ncn2O[C@@H]1CS[C@@H](CO)O1,,,,,>100 µg/mL
COc1ccc(NC(=O)C2=CC3Nc4ccccc4C3N(c3ccc(OC)cc3)C2=O)cc1,LAI,,cytopathic effect / MTT,,>32 µM
Nc1ccn([C@H]2C[C@@H](O)[C@H](CO)O2)c(=O)n1,IIIB,,cytopathic effect / MTT,,>10 µM
O=C1O/C(=C\Cn2cc(C(F)(F)F)c(=O)[nH]c2=O)C(O)=C1O,,,,,>50 µg/mL
CC(=O)c1ccc(-c2ccc(N3C(=O)C(C#N)=CC4C3c3ccccc3N4C)cc2)s1,LAI,,cytopathic effect / MTT,,1–32 µM
O=C(O)CCCCCCCCCCCCCNC(=O)C(CO[C@@H]1O[C@H](CO)[C@H](O)[C@H](O)[C@H]1O)NC(=O)CCC(=O)O,IIIB,,cytopathic effect / MTT,,>100 µM
Cc1cccnc1[C@H]1C[C@H](O)[C@@H](CO)O1,,,,,>200 µg/mL
CN1CCn2c(nc(C(=O)NCc3ccc(F)cc3)c(O)c2=O)C1CN(C)S(C)(=O)=O,,,p24,,1–10 µM
CC1=C[C@@H](OCP(=O)(O)O)C[C@H]1n1cnc2c(N)ncnc21,,,XTT,,85 µM
Cc1cccnc1[C@@H]1C[C@H](O)[C@@H](CO)O1,,,,,>200 µg/mL
CCc1nc([N+](=O)[O-])c(N2CCN(C(=O)CCl)CC2)n1Cc1ccccc1,IIIB,,syncytia,,>0.41 µg/mL
Cc1cc(OCCCN2CCOCC2)ccc1NC(=O)COc1ccc(Cl)cc1C(=O)c1cccs1,IIIB,,cytopathic effect / propidium iodide,,0.011–0.1 µM
Cc1cccc(C2=C[C@H](O)[C@@H](CO)O2)n1,,,,,7 µg/mL
O=C(/C=C/c1ccc(F)cc1)c1ccccc1O,IIIB,,MTT,,>400 µM
Cc1cn(CCCO[C@H]2C=C[C@@H](CO)O2)c(=O)[nH]c1=O,IIIB,,cytopathic effect / MTT,,>20 µg/mL
Cc1cn([C@H]2C[C@H](O)[C@@H](CO)S2)c(=O)[nH]c1=O,IIIB,,cytopathic effect / MTT,,>1 µM
CN(C)c1nc(-c2ccc(N3C(=O)C=CC4C3c3ccccc3N4C)cc2)no1,LAI,,cytopathic effect / MTT,,>32 µM
CCc1nc([N+](=O)[O-])c(N2CCN(C(=O)c3ccc([N+](=O)[O-])cc3)CC2)n1Cc1ccccc1,IIIB,,syncytia,,>84.7 µg/mL
COc1ncnc2c1ncn2O[C@H]1CO[C@@H](CO)O1,,,,,>100 µg/mL
Cc1cc(OCCCS(N)(=O)=O)ccc1NC(=O)COc1ccc(Cl)cc1C(=O)c1cc(F)cc(C(F)(F)F)c1,IIIB,,cytopathic effect / propidium iodide,,<0.01 µM
COc1ccc(CSc2nc(C(=O)c3cccc(Br)c3)c(C)c(=O)[nH]2)cc1,IIIB,,MTT,,>252 µM
COc1ccc(/C=C/C(=O)c2ccccc2O)cc1OC,IIIB,,MTT,,>400 µM
C#C[C@]1(OC(C)=O)[C@@H](OC(C)=O)[C@H](n2ccc(N)nc2=O)OC1(COC(C)=O)COC(C)=O,IIIB,,antigen,,>100 µM
COc1ccc(C(=O)/C=C/c2ccc(O)cc2)c(O)c1,IIIB,,MTT,,>400 µM
CCc1nc([N+](=O)[O-])c(N2CCN(C(=O)c3ccc(OC)cc3)CC2)n1Cc1ccccc1,IIIB,,syncytia,,>64.7 µg/mL
COc1ccc(CSc2nc(C(=O)c3ccc(F)cc3)c(C(C)C)c(=O)[nH]2)cc1,IIIB,,MTT,,0.29 µM
COc1ccc(C(=O)/C=C/c2ccc(OC)cc2OC)cc1,IIIB,,MTT,,>400 µM
COP(=O)(c1cc(C)cc(CCC#N)c1)c1c(C(N)=O)[nH]c2ccc(Cl)cc12,NL4-3,Y181C,p24 / ELISA,,0.0036 µM
C=C(C)[C@@H]1CC[C@]2(C(=O)NCCCCCCCC(=O)N[C@@H](CC(C)C)[C@@H](O)CC(=O)O)CC[C@]3(C)[C@H](CC[C@@H]4[C@@]5(C)CC[C@H](O)C(C)(C)[C@@H]5CC[C@]43C)[C@@H]12,NDK,,cytopathic effect / MTT,,>5 µM
O=C(NCc1ccc(F)cc1)c1ncc2cccnc2c1O,,,p24,10% FBS,<1.25 µM
CN1CCn2c(nc(C(=O)NCc3cccc(Cl)c3)c(O)c2=O)C(N(C)C(=O)C(=O)N(C)C)C1,,,p24,,<1 µM
C#C[C@@]1(O)[C@@H]([C@@H](C)O)O[C@@H](n2ccc(=O)[nH]c2=O)[C@@H]1O,IIIB,,antigen,,>100 µM
Cc1cc(S(N)(=O)=O)ccc1NC(=O)COc1ccc(Cl)cc1C(=O)c1cc(Cl)cc(Cl)c1,Nevirapine-resistant (RT Y181C),RT-Y181C,cytopathic effect / propidium iodide,,<0.01 µM
C#C[C@]1(OC(C)=O)[C@@H](OC(C)=O)[C@H](n2ccc(=O)[nH]c2=O)OC1(COC(C)=O)COC(C)=O,IIIB,,antigen,,>100 µM
Cc1cc(S(N)(=O)=O)ccc1NC(=O)COc1ccc(Cl)cc1C(=O)c1cccc(C#N)n1,IIIB,,cytopathic effect / propidium iodide,,<0.01 µM
Nc1ncnc2c1ncn2[C@@H]1C[C@@H](O)[C@@H](O)[C@H]1O,IIIB,,,,>0.8 µM
C#C[C@@]1(O)[C@@H]([C@H](O)CO)O[C@@H](n2ccc(N)nc2=O)[C@@H]1O,IIIB,,antigen,,>100 µM
Cc1cc(C)cc(S(=O)(=O)c2c(C(=O)NCC(=O)NC(C)C(=O)NN)[nH]c3ccc(Cl)cc23)c1,IIIB,,cytopathic effect / MTT,,0.08 µM
O=c1ccn(N2CC[C@@H](CO)C2)c(=O)[nH]1,RF,,,,>100 µg/mL
Cc1cn([C@H]2C[C@H](N=[N+]=[N-])[C@@H](CO)O2)c(=O)[nH]c1=O,TKV-4046,,p24 / ELISA / antigen,,0.037 µM
O=C(COc1ccc(Cl)cc1C(=O)c1cc2ccccc2o1)Nc1ccccc1,IIIB,,cytopathic effect / propidium iodide,,0.011–0.1 µM
C#C[C@]1(O)[C@@H](O)[C@H](n2ccc(=O)[nH]c2=O)OC1(CO)CO,IIIB,,antigen,,>100 µM
O=C1O/C(=C\Cn2ccc(=O)[nH]c2=O)C(O)=C1O,,,,,>50 µg/mL
O=c1[nH]cnc2c1ncn2O[C@H]1CS[C@@H](CO)O1,,,,,>10 µg/mL
Cc1cn([C@@H]2C[C@H](O)[C@@H](CO)S2)c(=O)[nH]c1=O,IIIB,,cytopathic effect / MTT,,>100 µM
Cc1cc(S(N)(=O)=O)ccc1NC(=O)COc1ccc(Cl)cc1C(=O)c1cccc(C#N)c1,Nevirapine-resistant (RT Y181C),RT-Y181C,cytopathic effect / propidium iodide,,<0.01 µM
O=c1ccn([C@H]2C[C@@H](O)[C@H](CO)O2)c(=O)[nH]1,IIIB,,cytopathic effect / MTT,,>100 µM
CCCCNC(=O)P(=O)(O)OC1OC(n2cc(C)c(=O)[nH]c2=O)CC1N=[N+]=[N-],TKV-4046,,p24 / ELISA / antigen,,0.48 µM
CN1c2ccccc2C2C1C=C(C#N)C(=O)N2c1cccc([N+](=O)[O-])c1,LAI,,cytopathic effect / MTT,,<1 µM
Nc1nc2c(ncn2[C@H]2CC[C@@H](CO)O2)c(=O)[nH]1,IIIB Laboratory strain,,cytopathic effect / trypan blue,,7.6 µM
O=C(O)CCCCCCCCCCCCC(=O)NC(CO[C@@H]1O[C@H](CO)[C@H](O)[C@H](O)[C@H]1O)C(=O)NCCO,IIIB,,cytopathic effect / MTT,,>100 µM
O=C1CSC(c2c(Cl)cccc2Cl)N1Cc1ccco1,IIIB,,cytopathic effect / MTT,,0.204 µM
CNC(=O)P(=O)(O)OC1OC(n2cc(C)c(=O)[nH]c2=O)CC1N=[N+]=[N-],TKV-4046,,p24 / ELISA / antigen,,0.23 µM
C#C[C@@]1(OC(C)=O)[C@@H]([C@@H](COC(C)=O)OC(C)=O)O[C@@H](n2ccc(N)nc2=O)[C@@H]1OC(C)=O,IIIB,,antigen,,>100 µM

Repeating the first 7 entries:

SMILES	strain	mutations	method	setting	result
CCc1nc([N+](=O)[O-])c(N2CCN(C(=O)c3cccs3)CC2)n1Cc1ccccc1	IIIB		syncytia		>49 µg/mL
O=C(/C=C/c1ccccc1)c1ccccc1O	IIIB		MTT		>400 µM
Cc1cccc(-c2ccc(CO)o2)n1					>100 µg/mL
Cc1cc(C)cc(S(=O)(=O)c2c(C(=O)NCCO)[nH]c3ccc(Cl)cc23)c1		RT-K103N Y181C	cytopathic effect / MTT		0.5 µM
O=c1[nH]c(=O)n([C@@H]2C[C@H](O)[C@@H](CO)S2)cc1/C=C/Br	IIIB		cytopathic effect / MTT		>500 µM
CC1(C)c2nc(C(=O)NCc3ccc(F)cc3)c(O)c(=O)n2CCN1Cc1cn[nH]c1			p24		<1 µM
Cc1cc(S(N)(=O)=O)ccc1NC(=O)COc1ccc(Cl)cc1C(=O)c1cc(F)cc(C#N)c1	Nevirapine-resistant (RT Y181C)	RT-Y181C	cytopathic effect / propidium iodide		<0.01 µM